Measured values from several laboratories, pooled; numbers as filed in NIAID ChemDB.

Common to all: growth or infection tests; agent: HIV-1; read by: syncytia; read-out: EC50

Blank or dashed fields: not listed here. Rows are shuffled and stem from different studies. ECn is the concentration giving n% inhibition of infection, replication or growth.

structure | strain | changes | cells | result
N#CC1C=Cc2c(ccc3ccccc23)N1C(=O)c1ccco1 | IIIB | RT-P236L | MOLT-3 | 50 µM
O=[N+]([O-])c1ccc(S(=O)(=O)Oc2ccc(N=Nc3ccc(N=Nc4ccc(OS(=O)(=O)c5ccc([N+](=O)[O-])cc5)c5ncccc45)cc3)c3cccnc23)cc1 | IIIB |  | C8166 | 4.03 µg/mL
O=S(=O)(Cc1ccccc1I)c1cccc[n+]1[O-] | IIIB | RT-L100I | CEM | 10 µg/mL
Cc1occc1C(=O)Nc1ccc(Cl)c(/C=N/N(C)C)c1 | HEPT-resistant (RT Y188L) | RT-Y188L | CEM | <2 µg/mL
C=C(C)[C@@H]1CC[C@]2(C(=O)NCCCCCCCC(=O)N[C@@H](CC(C)C)[C@@H](O)CC(=O)O)CC[C@]3(C)[C@H](CC[C@@H]4[C@@]5(C)CC[C@H](O)C(C)(C)[C@@H]5CC[C@]43C)[C@@H]12 | LAI | GP41-K90R | HeLa P4 + HeLa | <10 µM
CCOC(=O)N1c2ccc3ccccc3c2C=CC1C#N | IIIB |  | MOLT-3 | 18.8 µM
C=C(C)C1CC[C@]2(C(=O)O)CC[C@]3(C)C(CCC4[C@@]5(C)C[C@@H](O)[C@H](C(=O)[O-])C(C)(C)C5CC[C@]43C)C12 | MC99 (Tat/Rev defective) |  | 1A2 | 6 µg/mL
CC1(C)S[C@H](C(NC(=O)Cc2ccccc2)C(=O)NCCO)N[C@H]1C(=O)NCCNC(=O)[C@@H]1N[C@@H](C(NC(=O)Cc2ccccc2)C(=O)NCc2ccccc2)SC1(C)C | RF |  | C8166 | 1.1 µM
N[C@@H](CCC(=O)O)C(=O)N[C@@H](CCC(=O)O)C(=O)N[C@@H](CCC(=O)O)C(=O)O | IIIB |  | SUP-T1 + H9 + Sup-T1 | >1000 µg/mL
COc1ccc(C)cc1CS(=O)(=O)c1cccc[n+]1[O-] | MN |  | CEM | 40 µg/mL
CCc1nc([N+](=O)[O-])c(N2CCN(C(=O)CSC)CC2)n1Cc1ccccc1.COc1ccccc1 | IIIB |  | MT-4 | >6.02 µg/mL
Cc1ccc(C)c(CS(=O)(=O)c2cccc[n+]2[O-])c1 | IIIB |  | CEM/MOLT-4 + CEM | >20 µg/mL
C=C(C)[C@@]12OC3(C)O[C@@H]1[C@@H]1[C@H](OC(=O)c4ccccc4)C4(C)O[C@@]5([C@@H]4OC(C)=O)[C@@H](OC(=O)c4ccccc4)[C@@H](C)C[C@H]5[C@@]1(O)[C@H](C)[C@@H]2O3 |  |  | C8166 | 44.3 µg/mL
Nc1nc(Cl)cc(OC[C@@H]2O[C@H](COCc3ccccc3)[C@@H](OCc3ccccc3)[C@H]2OCc2ccccc2)n1 | IIIB |  | CEM | >10 µM
C=C(C)C1CC[C@]2(C(=O)O)CC[C@]3(C)C(CCC4[C@@]5(C)C[C@@H](OC(C)=O)[C@H](O)C(C)(C)C5CC[C@]43C)C12 | Tat/Rev-defective |  | 1A2 | 5.6 µg/mL
CCOCn1c(Sc2ccccc2)c(CC)c(=O)[nH]c1=S | IIIB TIBO R82913-resistant (RT K103N) | RT-K103N | CEM | 1.1 µM
CCc1nc([N+](=O)[O-])c(N2CCN(C(=O)c3ccc(Cl)cc3)CC2)n1Cc1ccccc1 | IIIB |  | MT-4 | >21.2 µg/mL
O=S(=O)(Oc1ccc(N=Nc2ccc(N=Nc3ccc(OS(=O)(=O)c4ccccc4)c4ncccc34)cc2)c2cccnc12)c1ccccc1 | IIIB |  | C8166 | 14.63 µg/mL
CCOC(=O)CSCC(=O)N1CCN(c2c([N+](=O)[O-])nc(CC)n2Cc2ccccc2)CC1 | IIIB |  | MT-4 | >2.48 µg/mL
O=C(O)c1cn(-c2ccc(Cn3cncn3)cc2)c2c(F)c(N3CCN(c4ccc(Cl)c(C(F)(F)F)c4)CC3)c(F)cc2c1=O |  |  | PBL | 0.7 µM
CN[C@@H]1[C@H](O[C@@H]2OC[C@@H](O)[C@H](O)[C@H]2O)[C@@H](O)[C@H](O[C@H]2c3cc(C)c(C(=O)N[C@H](C)C(=O)O)c(O)c3-c3c(cc4c(c3O)C(=O)c3cc(OC)cc(O)c3C4=O)[C@@H]2O)O[C@@H]1C | Mutant AH_4/#58 |  | CEM | 4.7 µM
C=C(C)[C@@]12OC3(C)O[C@@H]1[C@@H]1[C@H](OC(=O)c4ccccc4)C4(C)O[C@@]5([C@@H]4OC(=O)c4ccccc4)[C@@H](OC(C)=O)[C@@H](C)C[C@H]5[C@@]1(O)[C@H](C)[C@@H]2O3 |  |  | C8166 | 2.19 µg/mL
COC(=O)[C@H](C)NP(=O)(OC[C@@H]1C=C[C@H](n2cc(C)c(=O)[nH]c2=O)O1)Oc1ccc(F)cc1 | IIIB |  | CEM + CEM/0 | 0.13 µM
Nc1nc(Cl)cc(OC[C@H]2CC[C@@H](COCc3ccccc3)O2)n1 | IIIB |  | CEM | >50 µM
CC(S)C(=O)NCC(=O)O |  |  | H9 | 200 µg/mL
CCc1nc([N+](=O)[O-])c(N2CCN(C(=O)c3ccc(OC)cc3)CC2)n1Cc1ccccc1 | IIIB |  | MT-4 | >64.7 µg/mL
O=C(O)c1cn(-c2ccc(Cn3cncn3)cc2)c2cc(N3CCN(c4ccccc4)CC3)c(F)cc2c1=O |  |  | PBL | 0.15 µM
CCOCn1c(Sc2cc(C)cc(C)c2)c(CC)c(=O)[nH]c1=S | IIIB | RT-Y181C | CEM | 0.09 µM
OC[C@H]1O[C@H](c2cc(Cl)c(F)cc2F)C[C@@H]1O | IIIB |  | CEM | >250 µM
O=[N+]([O-])c1ccccc1OCc1ccccc1 | IIIB |  | C8166 | 12.53 µg/mL
CC(C)c1c(Sc2ccccc2)n(COCc2ccccc2)c(=O)[nH]c1=O | IIIB | RT-E138K | CEM | 0.02 µM
COc1ccc([C@@H]2CC(=O)c3c(O)cc(O[C@@H]4O[C@H](CO[C@@H]5O[C@@H](C)[C@H](OP(=O)(O)O)[C@@H](OP(=O)(O)O)[C@H]5O)[C@@H](OP(=O)(O)O)[C@H](OP(=O)(O)O)[C@H]4O)cc3O2)cc1O | IIIS |  | MT-2 | 2.8 µg/mL
NC(N)=NCCC[C@H](NC(=O)[C@H](CCCN=C(N)N)NC(=O)[C@@H](N)CCCN=C(N)N)C(=O)O | IIIB |  | SUP-T1 + H9 + Sup-T1 | >1000 µg/mL
Cc1cccc(N2CCN(c3cc4c(cc3F)c(=O)c(C(=O)O)cn4-c3ccc(Cn4cncn4)cc3)CC2C)c1 |  |  | PBL | 0.1 µM
CCc1nc([N+](=O)[O-])c(N2CCN(C(=O)CCC(N)=O)CC2)n1Cc1ccccc1 | IIIB |  | MT-4 | >78.9 µg/mL
Nc1nccc(OC[C@@H]2O[C@H](CO)[C@@H](O)[C@H]2O)n1 | IIIB |  | CEM | >100 µM
O=S(=O)(O)NC1C(O)OC(COS(=O)(=O)O)C(O)C1O | IIIB |  | SUP-T1 + H9 + Sup-T1 | >1000 µg/mL
CCc1nc([N+](=O)[O-])c(N2CCN(C(=O)c3ccc(F)cc3)CC2)n1Cc1ccccc1 | IIIB |  | MT-4 | >57.5 µg/mL
CCc1c(Sc2ccccc2)n(COCc2ccccc2)c(=O)[nH]c1=O | IIIB |  | CEM | 0.002 µM
CCCCCCCCCC[N+](C)(C)CCCNCc1c(O)cc2c(c1O)-c1cc(ccc1O)[C@H]1NC(=O)[C@@H]3NC(=O)C4NC(=O)[C@@H](Cc5ccc(c(Cl)c5)Oc5cc3cc(c5O)Oc3ccc(cc3Cl)[C@@H](O)[C@H](NC1=O)C(=O)N[C@@H]2C(=O)O)NC(=O)[C@H](N)c1ccc(O)c(c1)Oc1cc(O)cc4c1 |  | RT-Y181C | CEM | 8.5 µM
O=[N+]([O-])c1ccc(COc2ccccc2)cc1 | IIIB |  | C8166 | 5.96 µg/mL
C=C(C)C1CC[C@@H]2CC[C@]3(C)C(CCC4[C@@]5(C)CC[C@H](O)C(C)(C)C5CC[C@]43C)C12 | MC99 (Tat/Rev defective) |  | 1A2 | 6.21 µg/mL
Cc1c(N)nc(N)nc1OCCOCP(=O)(O)O | IIIB |  | CEM | 2.7 µM
CCc1c(Sc2cc(C)cc(C)c2)n(COCCO)c(=S)[nH]c1=O | IIIB | RT-E138K | CEM | 0.04 µM
C=C(C)[C@@H]1CC[C@]2(C(=O)NCCCCCCCC(=O)N[C@@H](CC(C)C)[C@@H](O)CC(=O)O)CC[C@]3(C)[C@H](CC[C@@H]4[C@@]5(C)CC[C@H](O)C(C)(C)[C@@H]5CC[C@]43C)[C@@H]12 | LAI-R(GP41-R22A) | R22A | HeLa P4 + HeLa | <10 µM
CCOCn1c(Sc2ccccc2)c(C(C)C)c(=O)[nH]c1=S | IIIB | Nevirapine resistant (RT Y181C) | CEM | 0.16 µM
O=S(=O)(Oc1ccc(N=Nc2ccc(N=Nc3ccc(OS(=O)(=O)c4ccc(Br)cc4)c4ncccc34)cc2)c2cccnc12)c1ccc(Br)cc1 | IIIB |  | C8166 | 17.11 µg/mL
CCCOC(=O)N1c2ccc3ccccc3c2C=CC1C#N | IIIB | RT-P236L | MOLT-3 | 6.8 µM
CNC(=O)c1nc([C@]2(C)CSC([C@]3(C)CSC([C@]4(C)CSC(/C=C/c5ccccc5)=N4)=N3)=N2)oc1C | IIIB |  | MOLT-4/IIIB + MOLT-4 | >4.7 µM
Clc1ccc(OCc2ccccc2)cc1 | IIIB |  | C8166 | 11.53 µg/mL
Cc1cc(C)cc(Cc2c(C(C)C)c(=O)[nH]c(=O)n2COCCO)c1 | IIIB (TIBO 82150) (RT-L100I) | RT-L100I | CEM | 0.8 µM
C=C(C)C1CC[C@]2(C(=O)O)CC[C@]3(C)C(CCC4[C@@]5(C)C[C@@H](O)[C@H](OC(C)=O)C(C)(C)C5CC[C@]43C)C12 | Tat/Rev-defective |  | 1A2 | 6 µg/mL
Clc1ccccc1OCc1ccccc1 | IIIB |  | C8166 | 29.36 µg/mL
N#CC1C=Cc2ccccc2N1C(=O)c1ccc(Cl)cc1 | IIIB |  | MOLT-3 | 5.5 µM
CC(=O)Nc1ccc(S(=O)(=O)Oc2ccc(N=Nc3ccc(N=Nc4ccc(OS(=O)(=O)c5ccc(NC(C)=O)cc5)c5ncccc45)cc3)c3cccnc23)cc1 | IIIB |  | C8166 | 19.73 µg/mL
CCc1c(Sc2cc(C)cc(C)c2)n(COCc2ccccc2)c(=S)[nH]c1=O | IIIB | Nevirapine resistant (RT Y181C) | CEM | 0.04 µM
CC(C)(C)OC(=O)N[C@H](CN[C@@H](CC1CC1)C(=O)N[C@@H](CCC(=O)O)C(=O)NCCCc1ccccc1)Cc1ccccc1 | IIIB |  | C8166 | <20 µg/mL

The first 6 rows once more:

{"structure": "N#CC1C=Cc2c(ccc3ccccc23)N1C(=O)c1ccco1", "strain": "IIIB", "changes": "RT-P236L", "cells": "MOLT-3", "result": "50 µM"}
{"structure": "O=[N+]([O-])c1ccc(S(=O)(=O)Oc2ccc(N=Nc3ccc(N=Nc4ccc(OS(=O)(=O)c5ccc([N+](=O)[O-])cc5)c5ncccc45)cc3)c3cccnc23)cc1", "strain": "IIIB", "cells": "C8166", "result": "4.03 µg/mL"}
{"structure": "O=S(=O)(Cc1ccccc1I)c1cccc[n+]1[O-]", "strain": "IIIB", "changes": "RT-L100I", "cells": "CEM", "result": "10 µg/mL"}
{"structure": "Cc1occc1C(=O)Nc1ccc(Cl)c(/C=N/N(C)C)c1", "strain": "HEPT-resistant (RT Y188L)", "changes": "RT-Y188L", "cells": "CEM", "result": "<2 µg/mL"}
{"structure": "C=C(C)[C@@H]1CC[C@]2(C(=O)NCCCCCCCC(=O)N[C@@H](CC(C)C)[C@@H](O)CC(=O)O)CC[C@]3(C)[C@H](CC[C@@H]4[C@@]5(C)CC[C@H](O)C(C)(C)[C@@H]5CC[C@]43C)[C@@H]12", "strain": "LAI", "changes": "GP41-K90R", "cells": "HeLa P4 + HeLa", "result": "<10 µM"}
{"structure": "CCOC(=O)N1c2ccc3ccccc3c2C=CC1C#N", "strain": "IIIB", "cells": "MOLT-3", "result": "18.8 µM"}